This is a selection; strong and weak results do not stand in their true shares. Inconclusive results are not listed. The source made the active and inactive calls. The call rests on the fitted dose curve; tested in A549 cells.
Assay: qHTS for Stage-Specific Inhibitors of Vaccinia Orthopoxvirus: Venus Reporter Primary qHTS; further: nearly all actives have a fitted effect of over 30% in size
Details: Vaccinia virus Venus reporter expression, fluorescence; series mostly up to 36.5 µM; activity change, negative = inhibition: at the top concentration
On the % scale 0 is the no-effect control and ±100 the full control effect; potency means the concentration at half of the fitted maximal effect.

Row | SMILES | activity change, negative = inhibition | Potency
1 | COc1cc(C2NCCC3(OCCO3)C2(C)C)cc(OC)c1OC.O=[N+]([O-])c1cc([N+](=O)[O-])c(O)c([N+](=O)[O-])c1 (centres undefined) | inactive: -13.7% | –
2 | COc1cc([N+](=O)[O-])ccc1[N+](=O)[O-] | inactive: 1.24% | –
3 | Cc1ccc(C(=O)OC2CN3CCC2CC3)cc1 (centres undefined) | inactive: -16.2% | –
4 | Cc1nn(-c2ccccc2)c2c1P(=O)(N1CCOCC1)N(C)C(c1ccccc1)=N2 (centres undefined) | inactive: -4.05% | –
5 | Cc1ccc(OCC(=O)OC2CN3CCC2CC3)cc1 (centres undefined) | inactive: -0.96% | –
6 | O=[As](O)(c1cccs1)c1cccs1 | inactive: -7.01% | –
7 | CCCOc1ccc(NP(C)(=O)Oc2ccc(Cl)cc2)cc1 (centres undefined) | inactive: -9.36% | –
8 | O=P1(Nc2ncccn2)COc2ccccc2OC1 | inactive: -6.21% | –
9 | CN(Cc1cccnc1)C(=O)COc1ccc(Cl)c(Cl)c1.O=[N+]([O-])c1cc([N+](=O)[O-])c(O)c([N+](=O)[O-])c1 | inactive: 1.6% | –
10 | O=P1(N(CCCl)CCCl)NCCC(C(F)(F)F)O1 (centres undefined) | inactive: -10.4% | –
11 | CN(CCCl)Cc1cc(Cl)c(NC2=NCCN2)c(Cl)c1 | inactive: -9.2% | –
12 | CCOP(=O)(Nc1ccc(C)cn1)OCC | inactive: -12.3% | –
13 | CCOP(=O)(NC(=NC(C)c1ccccc1)NC(C)c1ccccc1)OCC (centres undefined) | inactive: -23.8% | –
14 | Nc1ccc(CCCCOc2ccccc2)cc1.O=[N+]([O-])c1cc([N+](=O)[O-])c(O)c([N+](=O)[O-])c1 | inactive: -22.2% | –
15 | O=[N+]([O-])c1cc([N+](=O)[O-])c(-n2nnc3ccccc32)c([N+](=O)[O-])c1 | inactive: -14.3% | –
16 | O=C(O)C(O)c1ccc(N(CCCl)CCCl)cc1.c1ccncc1 (centres undefined) | inactive: -11.1% | –
17 | O=P1(Nc2ccccn2)COc2ccccc2OC1 | inactive: -15.1% | –
18 | CC1(CBr)Cn2c(nc3ccccc3c2=O)S1 (centres undefined) | inactive: -14.1% | –
19 | Cc1nc2ccc3ccccc3c2s1.O=[N+]([O-])c1cc([N+](=O)[O-])c(O)c([N+](=O)[O-])c1 | inactive: 0% | –
20 | CC(C)/C=N\N=C(\N)N[N+](=O)[O-] | inactive: -13% | –
21 | CN(C(=O)Cc1ccc(Cl)c(Cl)c1)[C@@H]1CCCC[C@H]1N1CCCC1 | inactive | –
22 | Cc1ccc(S(=O)(=O)N(CCCN)CCCc2c(C)nc(N)[nH]c2=O)cc1.O=[N+]([O-])c1cc([N+](=O)[O-])c(O)c([N+](=O)[O-])c1 | inactive: -15.8% | –
23 | COc1ccccc1CNC(=O)COC(=O)C(O)(c1ccccc1)c1ccccc1 | inactive: -12.2% | –

Row | SMILES | activity change, negative = inhibition | Potency
24 | Cc1cc(C)cc(OP(C)(=O)Nc2ccc(SC(F)(F)F)cc2)c1 (centres undefined) | inactive: -20.8% | –
25 | O=C(COc1ccccc1)OC1CN2CCC1CC2 (centres undefined) | inactive: -10.3% | –
26 | CP(=O)(NC(=O)Nc1ccccc1)Oc1ccccc1 (centres undefined) | inactive: -11.4% | –
27 | CP(=O)(Oc1ccccc1)OC(c1ccccc1)C(F)(F)F (centres undefined) | inactive: -10.8% | –
28 | COC(=O)C1(C)COP(=O)(N2CCCC2)OC1 (centres undefined) | inactive: 9.51% | –
29 | Cc1cccc(C)c1OP(C)(=O)Nc1ccc(SC(F)(F)F)cc1 (centres undefined) | inactive: -13% | –
30 | COP1(=S)c2c(C)nn(CCC#N)c2N=C(c2ccc(F)cc2)N1C (centres undefined) | inactive: -22.8% | –
31 | CP(=O)(Nc1ccccn1)Oc1ccc(Cl)cc1 (centres undefined) | inactive: -4.83% | –
32 | CCOC(=O)c1ccc(NC(=O)C(C)(CCl)SC)cc1 (centres undefined) | inactive: -20.1% [at 7.34 µM] | –
33 | CCOC(=O)c1ccc(NP(C)(=O)Oc2ccc(OC)cc2)cc1 (centres undefined) | inactive: -12.3% | –
34 | O=[N+]([O-])c1cc([N+](=O)[O-])c(O)c([N+](=O)[O-])c1.c1ccc(Oc2ccncc2)cc1 | inactive: -5.52% [at 7.34 µM] | –
35 | O=C(OC1CN2CCC1CC2)c1cccc([N+](=O)[O-])c1 (centres undefined) | inactive: -8.02% | –
36 | CCOP(C)(=S)SCC(=O)NC(C)C(=O)O (centres undefined) | inactive: 32.5% | –
37 | CC1CCOC(=O)C=CC=CC(=O)OC2CC3OC4C5OC5(C)C(O)CC4(COC(=O)C1O)C2(C)C31CO1 (centres undefined) | – | active: 282 nM
38 | CCCCOc1ccc(C(=O)NCC2(N3CCCCC3)CCCCC2)cc1OC | inactive: 2.53% | –
39 | COP(=O)(OC)N1CC1c1ccccc1 (centres undefined) | inactive: -3.52% | –
40 | CC1CCNP(=O)(N(CCCl)CCCl)O1 (centres undefined) | inactive: -11.8% | –
41 | CCOC(=O)Nc1ccc([As](=O)(O)O)c(O)c1 | inactive: 0.316% | –
42 | O=C(O)C(=O)c1ccc(N(CCCl)CCCl)cc1.c1ccc(Nc2ccccc2)cc1 | inactive: -10% | –
43 | CP(=O)(Nc1ccccc1Br)Oc1ccccc1 (centres undefined) | inactive: 1.17% | –
44 | COc1ccccc1OP(C)(=O)Nc1ccccc1 (centres undefined) | inactive: -6.57% | –
45 | O=P(Nc1ccccn1)(c1cccc2ccccc12)c1cccc2ccccc12 | inactive: 0.83% | –
46 | Cc1cc(SC(NC=O)C(Cl)(Cl)Cl)ncn1 (centres undefined) | inactive: -11.5% | –

Row | SMILES | activity change, negative = inhibition | Potency
47 | CCOC(=O)Nc1cccc([As](=O)(O)O)c1 | inactive: -14.6% | –
48 | CP(=S)(Nn1cnnc1)Oc1ccccc1 (centres undefined) | inactive: 2.51% | –
49 | Cc1ccc2nc3c(c(C)c2c1)CC(C(Cl)Cl)S3 (centres undefined) | inactive: -22.7% | –
50 | Cc1cccc(C)c1OP(C)(N)=O (centres undefined) | inactive: -18.1% | –
51 | ClCCN(CCCl)c1ccc(CC2C=CC=C2)cc1 | inactive: -20.1% | –
52 | [N-]=[N+]=NC1CCCCC1NC(=O)c1cc([N+](=O)[O-])cc([N+](=O)[O-])c1 (centres undefined) | inactive: -11.6% | –
53 | O=[N+]([O-])c1ccc(-c2cc([N+](=O)[O-])c(O)c([N+](=O)[O-])c2)cc1 | inactive: -13.3% | –
54 | C[As](=O)(O)c1cccc(C(=O)O)c1 | inactive: -0.918% | –
55 | O=[As](O)(c1ccc(O)cc1)c1ccccc1O | inactive: -7.24% | –
56 | O=[N+]([O-])c1cc([N+](=O)[O-])c(Nc2cccnc2)c([N+](=O)[O-])c1 | inactive: -10.2% | –
57 | Cc1cc(C)cc(OP(C)(N)=O)c1 (centres undefined) | inactive: -2.41% | –
58 | COc1ccc(OP(C)(=O)Nc2cccc(F)c2)cc1 (centres undefined) | inactive: -10.4% | –
59 | CCN(CC)C(=S)SC(NC=O)C(Cl)(Cl)Cl (centres undefined) | inactive: -11.5% | –
60 | O=C(OC1CN2CCC1CC2)c1cccc2[nH]cnc12 (centres undefined) | inactive: 4.8% | –
61 | COc1ccccc1OP(C)(=O)Nc1cc(Cl)ccc1C (centres undefined) | inactive: -6.16% | –
62 | CC(C)NC(=O)NP(=O)(Oc1ccccc1)Oc1ccccc1 | inactive: -20.5% | –
63 | Cc1ccc(NP(C)(=O)Oc2ccccc2)c(C)c1 (centres undefined) | inactive: -6.87% | –
64 | COC(=O)C1(C)COP(=O)(N2CCCCCC2)OC1 (centres undefined) | inactive: -4.12% | –
65 | COc1ccccc1OP(C)(=O)Nc1ccc(C)cc1 (centres undefined) | inactive: -7.53% | –
66 | O=Cc1ccc(NCCCl)cc1 | inactive: -16.7% | –
67 | ClCCSc1nnc(-c2cccnc2)o1 | inactive: -7.85% | –
68 | CCOC(=O)c1ccc(NP(C)(=O)Oc2ccccc2)cc1 (centres undefined) | inactive: -11.5% | –
69 | COc1cc(I)ccc1[As](=O)(O)O | inactive: -12.8% | –

Row | SMILES | activity change, negative = inhibition | Potency
70 | COc1ccc2nc(NP(=O)(c3ccccc3)c3ccccc3)sc2c1 | inactive: -2.12% | –
71 | O=P1(N(CCCl)CCCl)OCCCN1CCCl (centres undefined) | inactive: -5.16% | –
72 | O=P1(N(CCCl)CCCl)Nc2ccccc2N1 | inactive: 1.48% | –
73 | Cc1cc(=O)[nH]c(N[N+](=O)[O-])n1 | inactive: -18.2% | –
74 | O=C(OC1CN2CCC1CC2)C12CC3CC(CC(C3)C1)C2 (centres undefined) | inactive: 62.7% | –
75 | COc1ccccc1-c1ccccn1.O=[N+]([O-])c1cc([N+](=O)[O-])c(O)c([N+](=O)[O-])c1 | inactive: -5.19% | –
76 | COc1ccc(N/C(=N/P(=O)(N2CCOCC2)N2CCOCC2)N2CCOCC2)cc1 | inactive: -8.3% | –
77 | O=[N+]([O-])c1cc(Oc2ccc([N+](=O)[O-])cc2C(F)(F)F)cc([N+](=O)[O-])c1 | inactive: -7.33% | –
78 | Cc1ccc(OP(=O)(Nc2nccs2)Oc2ccc(C)cc2)cc1 | inactive: -10.7% | –
79 | COc1ccc(OP(C)(=O)Nc2ccccn2)cc1 (centres undefined) | inactive: -6.78% | –
80 | COc1ccccc1OP(=O)(Nc1ccc(C)cn1)Oc1ccccc1OC | inactive: -5.34% | –
81 | Clc1ccc(Cl)c(NC2=NCC(CBr)S2)c1 (centres undefined) | inactive: 0.199% | –
82 | CN1CCCC(OC(=O)C(c2ccccc2)c2ccccc2)C1 (centres undefined) | inactive: -15.6% | –
83 | O=[N+]([O-])c1cc2c(cc1[N+](=O)[O-])OCO2 | inactive: -12.9% | –
84 | CC(=O)OC1C(=O)OCC23CCC4(C)OC4C2OC2CC(OC(=O)C=CC=CC(=O)OCCC1C)C3(C)C21CO1 (centres undefined) | – | active: 2510 nM
85 | Cc1ccc(N/C(=N/P(=O)(N2CCOCC2)N2CCOCC2)N2CCOCC2)cc1 | inactive: -12.9% | –
86 | COc1ccccc1OP(C)(=O)Nc1ccc(Br)cc1 (centres undefined) | inactive: -13.3% | –
87 | CN(C(=O)Cc1ccc(Cl)c(Cl)c1)[C@H]1CCCC[C@H]1N1CCCC1 | inactive: -23.2% | –
88 | COc1ccccc1OP(C)(=O)Nc1ccc(C)cc1C (centres undefined) | inactive: -9.71% | –
89 | CP(=O)(Nc1ccccn1)Oc1ccccc1 (centres undefined) | inactive: -0.282% | –
90 | CCc1ccc(OP(C)(=O)O)cc1 | inactive: 5.32% | –
91 | O=[N+]([O-])C1C(O)C(O)C([N+](=O)[O-])C(O)C1O (centres undefined) | inactive: 2.46% | –
92 | CC(C)CC(=O)NC(Sc1ccc(Cl)cc1)C(Cl)(Cl)Cl (centres undefined) | inactive: -9.42% | –

Row | SMILES | activity change, negative = inhibition | Potency
93 | Cc1c(NP(C)(=O)Oc2ccc(C(C)C)cc2)c(=O)n(-c2ccccc2)n1C (centres undefined) | inactive: -7.94% | –
94 | Nc1cc(N)c2nonc2c1[N+](=O)[O-] | inactive: -1.64% | –
95 | Oc1ccccc1CNc1ccccn1 | inactive: -9.65% | –
96 | Cc1ccc(NP(=O)(Oc2ccccc2F)Oc2ccccc2F)nc1 | inactive: -10.3% [at 7.34 µM] | –
97 | CN(C(=O)Cc1ccc(Cl)c(Cl)c1)[C@H]1CCCC[C@@H]1N1CCCC1 | inactive | –
98 | COc1ccccc1OP(C)(=O)Nc1ccc(C)c(C)c1 (centres undefined) | inactive: -17.7% | –
99 | CCOP(=O)(Nc1ccccc1)OCC | inactive: -9.6% | –
100 | COc1ccc(OP(C)(=O)Nc2ccccc2Br)cc1 (centres undefined) | inactive: -12.1% | –
101 | CCCC1OP(N)(=O)OCC1CC (centres undefined) | inactive: 11.2% | –
102 | O=C(O)c1ccccc1[As](=O)(O)O | inactive: -21.7% | –
103 | CC(=O)Nc1ccc([As](=O)(O)O)cc1 | inactive: 7.47% | –
104 | Cc1cc(C)cc(OP(C)(=O)Nc2cccc(C(F)(F)F)c2)c1 (centres undefined) | inactive: -20.2% | –
105 | CN(C)P(=O)(N(C)C)n1c(Nc2ccccc2)nnc1-c1ccccc1 | inactive: -14.6% | –
106 | O=P(Nc1nc2ccc(Cl)cc2s1)(c1ccccc1)c1ccccc1 | inactive: -6.73% | –
107 | CCN(N=Nc1nonc1N)c1nonc1N | inactive: 2.65% | –
108 | CP(=O)(Nc1ccc(Cl)cc1Cl)Oc1ccccc1 (centres undefined) | inactive: -23.7% | –
109 | Nc1cccc2ccc([As](=O)(O)O)cc12 | inactive: -7.81% | –
110 | Nc1c(O)cc([N+](=O)[O-])cc1[N+](=O)[O-] | inactive: -18.7% | –
111 | O=C(Nc1cc([As](=O)(O)O)ccc1O)c1ccccc1 | inactive: 0.0581% | –
112 | O=P(/N=c1/nc(-c2ccccc2)n(-c2ccccc2)s1)(Nc1ccccc1)Nc1ccccc1 | inactive: -22% | –
113 | CCOC(=O)c1ccc(NP(C)(=O)Oc2ccc(Cl)cc2)cc1 (centres undefined) | inactive: -9.69% | –
114 | Cc1cc(C=O)ccc1N(CCCl)CCCl | inactive: 0.853% | –
